In paper PMC8878748, “Broad-Spectrum Antiviral Activity of the Amphibian Antimicrobial Peptide Temporin L and Its Analogs” (International Journal of Molecular Sciences, 2022):

Tested on: influenza virus (subtype H1N1)
Details: influenza virus (subtype, 2 h)

## CCCC[C@H](NC(=O)[C@@H](CC(C)C)NC(=O)[C@H](Cc1ccccc1)NC(=O)[C@H](CCCCN)NC(=O)[C@H](CO)NC(=O)[C@H](Cc1ccccc1)NC(=O)[C@H](Cc1c[nH]c2ccccc12)NC(=O)[C@@H]1CCCN1C(=O)[C@@H](NC(=O)[C@H](Cc1ccccc1)NC(=O)CNC(=O)CNC(=O)[C@@H](N)CSCC(=O)NCCOCCOCCOCCOCCC(=O)O[C@H]1CC[C@@]2(C)C(=CC[C@H]3[C@@H]4CC[C@H]([C@H](C)CCCC(C)C)[C@@]4(C)CC[C@@H]32)C1)C(C)C)C(=O)N[C@@H](CCCNC(=N)N)C(=O)N[C@H](C(=O)N[C@@H](CC(C)C)C(N)=O)[C@@H](C)CC [TL6.4, H-[Cholesterol-PEG4]-Cys-Gly-Gly-Phe-Val-Pro-Trp-Phe-Ser-Lys-Phe-DLeu-Nle-Arg-Ile-Leu-NH2]
  IC50: 6.02 µM
  IC90: 9.9 µM
